Measured values from several laboratories, pooled; numbers as filed in NIAID ChemDB.

Common to all: growth or infection tests; species: Mycobacterium tuberculosis

An empty or dashed field is not shown.

smiles	cells	strain	setting	mutations	endpoint	method	dose	value
CCOC(=O)Nc1cc2[nH]c(-c3cc(OC)c(OC)c(OC)c3)nc2c(N(CCc2ccccc2)Cc2ccccc2)n1		H37Rv			EC50			<12.5 µg/mL
CCCCCCCCCOc1cccc(NC(=O)OCC[NH+]2CCCC2)c1		My 331/88			MIC			32 µM
CCC1(C)N=C(C(N)=O)c2ncn(N=C(C)C)c2N1		H37Rv			MIC bound	BACTEC		>12.5 µg/mL
O=C1c2cc(F)ccc2-n2c1nc1ccccc1c2=O		H37Rv			MIC			0.13 µg/mL
CC1S/C(=N/N=C2\C(=O)Nc3ccc(Br)cc32)N(c2ccc(Cl)cc2)C1=O		H37Rv			MIC			>12.5 µg/mL
CCCCOc1cccc(NC(=O)OCCN(C)C)c1		My 331/88			MIC			125 µM
COc1ccc(CC2C3=C(CCCC3)CCN2c2cc3c(cc2[N+](=O)[O-])c(=O)c(C(=O)O)cn3-c2ccc(F)cc2F)cc1		ATCC35801			MIC			5.45 µM
CCc1ccc([C@H]2C[C@@H](C(F)(F)F)n3ncc(C(=O)NCc4ccc(OC)cc4)c3N2)cc1		H37Rv		MmpL3: Tyr252Cys	fold resistance	fluorescence		4
CC[C@H]1OC(=O)[C@H](C)[C@@H](O[C@H]2C[C@@](C)(OC)[C@@H](O)[C@H](C)O2)[C@H](C)[C@@H](O[C@@H]2O[C@H](C)C[C@H](N(C)C)[C@H]2O)[C@](C)(OC)C[C@@H](C)C(=O)[C@H](C)[C@@H](O)[C@]1(C)O		Isolate 33			MIC			0.5 µg/mL
CCCCN(C(=O)c1ccccc1)C1CCC(=O)c2[nH]c3ccccc3c21		H37Rv			inhibition	resazurin	6.25 µg/mL	17%
O=C(Oc1ccc(Cl)cc1C(=O)Nc1cccc(C(F)(F)F)c1)c1cnccn1		multidrug resistant 9449/2006	14 d		MIC			1 µM
O=[N+]([O-])c1cn2c(n1)OC[C@@H](OCc1ccc(OC(F)(F)F)cc1)C2		H37Rv-14A1 (PA-824-resistant)			MIC			>100 µM
CCCCCCCCCCOc1cccc(NC(=O)OCCN2CCOCC2)c1		My 331/88			MIC			32 µM
CN(C)/N=C/C=C1\N=C(c2ccccc2)OC1=O		H37Rv			MIC bound	BACTEC		>12.5 µg/mL
O=C1c2cc(I)ccc2-n2c1nc1ncccc1c2=O		10038RFLP:W (MDR)			MIC			0.06 µg/mL
Cc1nccc2c(C)c3c(cc12)c1ccccc1n3CCC1CO1		H37Rv			inhibition	resazurin	6.25 µg/mL	100%
NNC(=O)c1ccncc1		Clinical isolate 9			MIC			50 µg/mL
CCCCCCCCCCOc1ccccc1NC(=O)OCCN1CCOCC1		My 331/88			MIC			16 µM
CN=C(N=Nc1c(O)[nH]c2ccccc12)SCC(=O)c1ccccc1		H37Rv			inhibition		12 µg/mL	92%
Cc1nc(Cl)c(C(N)=O)c(C)c1Cl		H37Rv			MIC	BACTEC		≥12.5 µg/mL
CCCCCOc1ccc(NC(=O)OCCN2CCCCCC2)cc1		My 331/88			MIC			16 µM
CC(=O)Nc1ccc(/C=N/NC(N)=S)cc1Br					MIC			<6.25 µg/mL
CO[C@H]1/C=C/O[C@@]2(C)Oc3c(C)c(O)c4c(O)c(c(/C=N/N5CCN(C6CCCC6)CC5)c(O)c4c3C2=O)NC(=O)/C(C)=C\C=C\[C@H](C)[C@H](O)[C@@H](C)[C@@H](O)[C@@H](C)[C@H](O)[C@@H]1C		Isolate 900233 drug-susceptible			MIC			0.125 µg/mL
CCOC(=O)Nc1cc2ncc(C)nc2c(NC(=O)OCC)n1		H37Rv			EC50			>12.5 µg/mL
CCC[CH2][Sn]([Cl])([Br])[CH2]CCC.c1cnc2c(c1)ccc1cccnc12		H37Rv			MIC	BACTEC		3.13 µg/mL
CC(=O)Nc1ccc(/C=N/NC(N)=S)cc1F		Isoniazid-resistant			MBC			>62.5 µg/mL
CCOc1ncn(-c2ccc(NC(=S)NC34CC5CC(CC(C5)C3)C4)cc2)n1		H37Rv			MIC bound	BACTEC		≤12.5 µg/mL
O=C(O)/C=C/c1ccccc1		90-0233 (isoniazid streptomycin-resistant)			MIC			200 µg/mL
CC(C)(C)NC(=O)C1c2ccccc2CCN1c1cc2c(cc1[N+](=O)[O-])c(=O)c(C(=O)O)cn2C(C)(C)C		ATCC35801			MIC			6.34 µM
NNC(=O)c1ccncc1		Strain 460			MIC			0.125 µg/mL
O=C(/C=C/c1ccccc1Cl)c1ccccc1		H37Rv	7 d		MIC	resazurin		32 µg/mL
CCCCCCCCCCOc1ccccc1NC(=O)OCCN(C)C		My 331/88			MIC			8 µM
COc1ccc(OC)c(Cc2cnc3nc(N)nc(N)c3c2C)c1		H37Rv			MIC	resazurin		3.13 µg/mL
O=C(/C=C/c1c(F)cccc1Cl)c1ccc(F)cc1		H37Rv	7 d		MIC	MTT		64 µg/mL
CC(=O)N1c2ccccc2C2=NN(C)C(=N)SC21		H37Rv			inhibition	resazurin	6.25 µg/mL	34%
CC1COc2c(N3CCN(C)CC3)c(F)cc3c(=O)c(C(=O)O)cn1c23		90-0216 (DRUG-SUS)			MIC			0.5 µg/mL
NC(=O)c1cnc(Cl)cn1		VA 205			MIC			32 µg/mL
COc1c(N2CCNC(C)C2)c(F)cc2c(=O)c(C(=O)O)cn(C3CC3)c12		Strain 34			MIC			0.125 µg/mL
O=C(O)c1cn(-c2ccc(F)cc2F)c2cc(N3CCSCC3)c(F)cc2c1=O		ATCC35801			MIC			14.87 µM
Cc1cc(C)c2nc3n(c(=O)c2c1)-c1ccc(F)cc1C3=O		H37Rv			MIC			0.13 µg/mL
COc1cc2c(c3c1c(=O)c1cc(F)ccc1n3C)C=CC(C)(C)O2		H37Rv			MIC bound	BACTEC		>12.5 µg/mL
O=C1c2ccc(Cl)cc2-n2c1nc1ccccc1c2=O		H37Rv			MIC			0.13 µg/mL
CCCCC(=O)C(C)Nc1cc(NC(=O)OCC)nc(N)c1[N+](=O)[O-]		H37Rv			inhibition		12.5 µg/mL	3%
NNC(=O)c1ccncc1		Clinical isolate 109		INH RIF resistant	MIC	resazurin		2 µg/mL
O=C(Oc1cc(Cl)ccc1C(=O)Nc1ccc(Br)cc1)c1cnccn1		H37Rv 331/88	14 d		MIC			2 µM
CC(=O)NNC(=O)c1cccnc1		H37Rv			inhibition	BACTEC	12.5 µg/mL	0%
NC(=O)c1cnccn1		TMC311	7 d		inhibition		800 µg/mL	-10%
Cc1cccc(C(N)=Nc2nc(-c3ccccn3)cc3ccccc23)c1		J-2912			MIC			0.5 µg/mL
O=C(Oc1ccc(Br)cc1C(=O)Nc1ccc(C(F)(F)F)cc1)c1cnccn1		multidrug resistant 53/2009	14 d		MIC			0.5 µM
CCOC(=O)Nc1cc(N)c([N+](=O)[O-])c(NCCc2ccc(S(C)(=O)=O)cc2)c1		H37Rv			EC50			>12.5 µg/mL
O=C1c2cc(OC(F)(F)F)ccc2-n2c1nc1cnccc1c2=O		H37Rv			MIC			0.03 µg/mL
O=C1C(Cl)=CC(=NCl)C=C1Cl		H37Rv			inhibition	BACTEC	12.5 µg/mL	10%
Cc1cc(=O)oc2cc(N)ccc12		H37Rv			MIC	resazurin		1000 µg/mL
O=C(/C=C/c1ccccc1)c1ccccc1		H37Rv			MIC	MTT		32 µg/mL
NNC(=O)c1ccncc1		H37Rv			MIC	resazurin		30 µg/mL
O=C(Oc1ccc(Cl)cc1C(=O)Nc1ccc(C(F)(F)F)cc1)c1cnccn1		extensively drug resistant Praha 131	21 d		MIC			0.125 µM
O=C1c2cc([N+](=O)[O-])ccc2-n2c1nc1ccccc1c2=O		H37Rv			MIC			0.015 µg/mL
O=C(Oc1ccc(Cl)cc1C(=O)Nc1ccc(Cl)c(Cl)c1)c1cnccn1		multidrug resistant 7357/1998	21 d		MIC			0.25 µM
CN1CCN(c2cc3c(cc2F)c(=O)c(C(=O)O)cn3C2CC2)CC1c1ccccc1		ATCC35801			MIC			0.93 µM
CC(=O)C1=C(C)O/C(=C\c2cccc(Cl)c2)C1=O		H37Rv			MIC bound	BACTEC		>12.5 µg/mL
Nc1ccc(C(=O)O)c(O)c1		Clinical isolate 5			MIC			0.2 µg/mL
COc1ccc(/C=C(\C#N)n2nnc3ccccc32)cc1		ATCC 27294			MIC90			>100 µM
CC[C@@H](CO)NCCN[C@@H](CC)CO		90-0216 (DRUG-SUS)			MIC			1 µg/mL
CN1CCN(c2cc3c(cc2F)c(=O)c(C(=O)O)cn3C(C)(C)C)CC1c1ccccc1		ATCC35801			MIC			1.78 µM
CN[C@@H]1[C@H](O[C@H]2[C@H](O[C@H]3[C@H](O)[C@@H](O)[C@H](N=C(N)N)[C@@H](O)[C@@H]3N=C(N)N)O[C@@H](C)[C@]2(O)C=O)O[C@@H](CO)[C@H](O)[C@H]1O		Clinical isolate 1			MIC			>100 µg/mL
C/C=C/C/C=C/CCC(=O)[C@H]1O[C@H]1C(N)=O		90-0145 (DRUG-SUS)			MIC			2.5 µg/mL
Cc1ccc2c(c1)nc1cc3c(cc1n2C1CCCCC1)c(Cl)c(=O)c1ccccc13		H37Rv			MIC bound	BACTEC		≤12.5 µg/mL
COc1ccc(C(=O)/C=C/c2ccc(F)cc2)cc1F		H37Rv			MIC	MTT		64 µg/mL
CCCCN=C(N=Nc1c(O)[nH]c2ccc(Br)cc12)SCC(=O)c1ccc(Br)cc1		H37Rv			inhibition		12 µg/mL	99%
N#C/C(=C/c1ccccc1Cl)n1nnc2ccccc21		ATCC 27294			MIC50			13.8 µM
CCCCCCCCS(=O)(=O)CC(N)=O		1D4924			MIC			≤6.25 µg/mL
Cc1onc(-c2c(F)cccc2F)c1C(=O)N1CCN(c2cc3c(cc2F)c(=O)c(C(=O)O)cn3C2CC2)CC1		ATCC35801			MIC			5.67 µM
Cc1ccc(N2C(=O)C(C)S/C2=N/N=C2\C(=O)Nc3ccc(Br)cc32)cc1		H37Rv			EC50			>12 µg/mL
COc1ccc(C(=O)/C=C/c2ccc(F)cc2)c(F)c1		H37Rv	21 d		MIC	MTT		32 µg/mL
COc1cc2c(cc1OC)[C@@H]1C(=O)c3ccc4c(c3O[C@@H]1CO2)C[C@H](C(C)C)O4		H37Rv			inhibition	BACTEC	12.5 µg/mL	32%
Cc1cccc(OCC(=O)N=Nc2c(O)n(CN3CCOCC3)c3ccccc23)c1		H37Rv			MIC			>12.5 µg/mL
O=C(Oc1cc(Cl)ccc1C(=O)Nc1cccc(Br)c1)c1cnccn1		331/88	21 d		MIC			8 µM
CCCCN1C(=O)C(C)S/C1=N/N=C1\C(=O)Nc2ccc(Br)cc21		H37Rv			inhibition		12 µg/mL	18%
CCCCCCCOc1cccc(NC(=O)OCCN2CCCCC2)c1		My 331/88			MIC			16 µM
CCOC(=O)c1ccc2c(c1)C(=O)c1nc3ncccc3c(=O)n1-2		H37Rv			MIC			0.06 µg/mL
N#C/C(=C\c1cc(Cl)cc(Cl)c1)n1nnc2ccccc21		ATCC 27294			MIC50			63.8 µM
Cc1ccc(C(=O)/C=C/c2ccccc2)cc1		H37Rv			MIC	MTT		32 µg/mL
CCOC(=O)Nc1cc(N(C)C/C(=N\O)c2ccc(OC)cc2)c([N+](=O)[O-])c(N)n1		H37Rv			inhibition		12.5 µg/mL	2%
Nc1nc(N)c2nnsc2n1		H37Rv			MIC bound	resazurin		>6.25 µg/mL
N#C/C(=C\c1ccc(Cl)c(Cl)c1)n1nnc2ccccc21		ATCC 27294			MIC50			≥100 µM
O=c1nc2n(c3ncccc13)CC=NN2		H37Rv			MIC bound	BACTEC		>12.5 µg/mL
N#C/C(=C\c1ccccc1C(F)(F)F)n1nnc2ccccc21		ATCC 27294			MIC90			65.8 µM
CCC(=O)N1C(=O)C(C)C23c4cc(OC)c(OC)cc4C(=O)N2CCCN13		H37Rv			MIC bound	BACTEC		>12.8 µg/mL
CCOc1ccc(NC(=O)OCCN(C)C)cc1		My 331/88			MIC			1000 µM
Cc1ccc(NC2=CC(=O)C(=O)c3ccccc32)cc1	VERO	H37Rv			MIC	resazurin		0.2 µg/mL
N#C/C(=C\c1cccc(F)c1F)n1nnc2ccccc21		ATCC 27294			MIC90			92.4 µM
CCC(C)NC(=O)C1C2CC3OC(=O)C1C3C2		H37Rv			MIC bound	BACTEC		>12.5 µg/mL
CCC1Cn2cc([N+](=O)[O-])nc2O1		H37Rv			MIC			0.4 µM

A second listing of 9 rows from above:

smiles,cells,strain,setting,mutations,endpoint,method,dose,value
CO[C@H]1/C=C/O[C@@]2(C)Oc3c(C)c(O)c4c(O)c(c(/C=N/N5CCN(C6CCCC6)CC5)c(O)c4c3C2=O)NC(=O)/C(C)=C\C=C\[C@H](C)[C@H](O)[C@@H](C)[C@@H](O)[C@@H](C)[C@H](O)[C@@H]1C,,Isolate 900233 drug-susceptible,,,MIC,,,0.125 µg/mL
CN=C(N=Nc1c(O)[nH]c2ccccc12)SCC(=O)c1ccccc1,,H37Rv,,,inhibition,,12 µg/mL,92%
CC(=O)C1=C(C)O/C(=C\c2cccc(Cl)c2)C1=O,,H37Rv,,,MIC bound,BACTEC,,>12.5 µg/mL
O=C1c2cc(OC(F)(F)F)ccc2-n2c1nc1cnccc1c2=O,,H37Rv,,,MIC,,,0.03 µg/mL
Cc1cc(C)c2nc3n(c(=O)c2c1)-c1ccc(F)cc1C3=O,,H37Rv,,,MIC,,,0.13 µg/mL
O=C1c2cc(I)ccc2-n2c1nc1ncccc1c2=O,,10038RFLP:W (MDR),,,MIC,,,0.06 µg/mL
COc1ccc(CC2C3=C(CCCC3)CCN2c2cc3c(cc2[N+](=O)[O-])c(=O)c(C(=O)O)cn3-c2ccc(F)cc2F)cc1,,ATCC35801,,,MIC,,,5.45 µM
O=C(O)/C=C/c1ccccc1,,90-0233 (isoniazid streptomycin-resistant),,,MIC,,,200 µg/mL
COc1c(N2CCNC(C)C2)c(F)cc2c(=O)c(C(=O)O)cn(C3CC3)c12,,Strain 34,,,MIC,,,0.125 µg/mL

Neighbouring rows are from separate reports. ECn: concentration that inhibits the pathogen or its effect by n%. MIC bound: limit read from a one-dose screen. Inhibition is in % at the dose shown (toxicity tests: loss of growth or viability). MIC50, MIC90 and the like: level of inhibition, or share of isolates inhibited. Fold resistance has wild type as its base.